Values of other authors as cited in patent US20230331815A1 (priority 2020, published 2023).

Key:
[1] = tested on: COVID-19 infection; settings: two doses of 300 ug/kg with a gap of 3 days, healthcare workers; cited from earlier work
[2] = tested on: HCoV-NL63; settings: cited from earlier work
[3] = tested on: SARS-CoV; settings: HeLa cell expressing ACE2 and TMPRSS2; cited from earlier work

Row | Compound | reduction of COVID-19 infection [1] | infection by HCoV-NL63 [2] | infection by SARS-CoV [3]
1 | Ivermectin | 73% |  | 
2 | CN(C)C(=O)COC(=O)Cc1ccc(OC(=O)c2ccc(NC(=N)N)cc2)cc1 [camostat mesylate] |  | partially blocks infection | partially blocks infection

Where a name gives a salt, the structure may show the parent alone.
